# Reference: publication PMC11172107
# Key:
# [1] = target: T1, ArgR-His6 (Vibrio fluvialis 85003) (UniProt A0AAX2LJS0); assay: EMSA; conditions: EMSA: 20 mM Tris/HCl pH 7.6, 50 mM KCl, 1 mM EDTA, 5% glycerol, 200 ng BSA, 500 ng dI-dC, 15 ng probe, 30 C 20 min, recombinant protein, residues 1-161, label: biotin, probe letters rebuilt from the primers and the genome
# T1 sequence: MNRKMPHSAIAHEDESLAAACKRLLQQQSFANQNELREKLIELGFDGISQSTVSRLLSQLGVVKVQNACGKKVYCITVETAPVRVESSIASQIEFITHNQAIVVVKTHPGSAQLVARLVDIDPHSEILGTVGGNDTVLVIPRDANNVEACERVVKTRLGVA
# [2] = target: T1, ArgR-His6 (Vibrio fluvialis 85003); assay: DNase I footprinting; conditions: 5.40 uM ArgR, footprinting: 5.40 uM ArgR-His6, 40 uL, 37 C 0.5 h, recombinant protein, residues 1-161, probe letters rebuilt from the primers and the genome
sequence,measurement,setting,value
GCATACTTCAGTGCTATTGAGTGAATAATAAGGAAAATGAATTTGCATAAACTTCCTCAACTATCAATTCATCCTCCTAATTTCATGAATATTCTTTATTTATCCCGATTAAACTTCCATAAAATCCGCACAACCACCCAACAAGATAATCTTCTATCAGATGAATAAACATTGTTAAAAAACACTAGATTTCATGCTTTTTTAATAAAAATCGAACTGTGATCGCTCT (double strand) [arcACB1 probe],binding result,[1]; four shifted bands,binds
CATCGGTTTGAGTTTGTCTCAGATCAATATTTTGGCCGATATTTTTGTTACATCGGACGTTTTTATTCGCCCTAAAGTCACTATCTACCCTTTAGAAATGCATACTTCAGTGCTATTGAGTGAATAATAAGGAAAATGAATTTGCATAAACTTCCTCAACTATCAATTCATCCTCCTAATTTCATGAATATTCTTTATTTATCCCGATTAAACTTCCATAAAATCCGCACAACCACCCAACAAGATAATCTTCTATCAGATGAATAAACATTGTTAAAAAACACTAGATTTCATGCTTTTTTAATAAAAATCGAACTGTGATCGCTCTCTAAGAAAGACCTCTCTGACGGGGTAATATGAATATCAGAACG (double strand) [arcACB footprinting probe],binding result,"[2]; sites 1, 2 and 4 protected, site 3 not detected, label: FAM",binds
GCCACTGAAATAGCAATTGAATAAAATTCCCTATTTTTTATTCACCCGGAGAAAAGTCACGAGCAACCGTGCACAAGGGGAATATTTAAAGAATAGAATTTCATTATTTATAGCCAATTACCCCGCTTTATTTTTCTGGTTATTTCCGGCCAATTTATTACCCCAATATTTTGTGAACCACCGCTAAGATAATCCGCCGCAGGCTCTTTAGAATTTCTTTAACGATGAAGTGAAATTCACTTTATCACCATGAATAACAATAAAAGTTTTCACCATATTTATTACAAGTCCTAAGCTTTATTCCACGAAATACGTTGCCATATTGAATAGTATTGCAATAAACGTTTTCTAAATGAGTGAATTGAGGTGTGGG (double strand) [arcD1 probe],binding result,[1]; four shifted bands,binds
TCAGAGCGGAAACAGAGAAGATATGTTTGCATCATCAGACCCACACCTCAATTCACTCATTTAGAAAACGTTTATTGCAATACTATTCAATATGGCAACGTATTTCGTGGAATAAAGCTTAGGACTTGTAATAAATATGGTGAAAACTTTTATTGTTATTCATGGTGATAAAGTGAATTTCACTTCATCGTTAAAGAAATTCTAAAGAGCCTGCGGCGGATTATCTTAGCGGTGGTTCACAAAATATTGGGGTAATAAATTGGCCGGAAATAACCAGAAAAATAAAGCGGGGTAATTGGCTATAAATAATGAAATTCTATTCTTTAAATATTCCCCTTGTGCACGGTTGCTCGTGACTTTTCTCCGGGTGAATAAAAAATAGGGAATTTTATTCAATTGCTATTTCAGTGGCAGGAAAATAACTTTCGAACCAATGCTTGATTTAAATCAAGTCACTGTATCGGACAC (double strand) [arcD footprinting probe],binding result,"[2]; site 1 protected, sites 2 and 3 not protected, label: …",binds
CTTCCATAAAATCCGCACAACCACCCAACAAGATAATCTTCTATCAGATGAATAAACATTGTTAAAAAACACTAGATTTCATGCTTTTTTAATAAAAATCGAACTGTGATCGCTCT (double strand) [arcACB2 probe],binding result,[1]; two shifted bands,binds

# Construct, isoform or probe ends are uncertain for at least one entry.
